Our source for the IC50 values is ChEMBL document CHEMBL1147064 (Proc Natl Acad Sci U S A, 2007).

Protein sequences, listed by entry. Tags and fused reporters are not part of them. Residues count along the entry.
UniProt P0DPI0, 2-448 limits assumed: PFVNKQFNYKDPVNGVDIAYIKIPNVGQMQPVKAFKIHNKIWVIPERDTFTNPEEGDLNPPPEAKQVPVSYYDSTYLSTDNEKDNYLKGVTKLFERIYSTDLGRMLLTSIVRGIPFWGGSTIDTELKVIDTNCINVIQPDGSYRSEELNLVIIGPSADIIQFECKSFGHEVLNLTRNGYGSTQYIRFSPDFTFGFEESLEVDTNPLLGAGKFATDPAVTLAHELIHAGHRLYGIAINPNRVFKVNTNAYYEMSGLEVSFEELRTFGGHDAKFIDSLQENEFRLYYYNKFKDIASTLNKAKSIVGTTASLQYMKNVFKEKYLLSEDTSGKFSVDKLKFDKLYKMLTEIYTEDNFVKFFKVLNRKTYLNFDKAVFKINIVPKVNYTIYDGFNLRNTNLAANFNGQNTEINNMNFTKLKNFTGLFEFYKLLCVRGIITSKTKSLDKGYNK

pIC50: −log10 of the molar value.

The target in the assay is Botulinum neurotoxin type A (Clostridium botulinum, UniProt P0DPI0).
Consider `COc1cccc(CCNC(=O)CN(CC(=O)NC2CCCc3ccccc32)C(=O)Cn2c(C(=O)N[C@H]3CCCC[C@@H]3NC(=O)c3cc4ccccc4n3CC(=O)N(CC(=O)NCCc3cccc(OC)c3)CC(=O)NC3CCCc4ccccc43)cc3ccccc32)c1` (stereo not given in full), for which the pIC50 is 4.72.
The figure for `O=C(NCCc1ccccc1)[C@H]1CN(C(=O)c2ccc(-c3ccc(C(=O)N4C[C@@H](C(=O)NCCc5ccccc5)[C@H](C(=O)NC(c5ccccc5)c5ccccc5)C4)cc3)cc2)C[C@@H]1C(=O)NC(c1ccccc1)c1ccccc1` is 4.27.
The figure for `O=C(CN(CC(=O)NCc1cc(F)cc(C(F)(F)F)c1)C(=O)Cn1c(C(=O)N[C@H]2CCCC[C@@H]2NC(=O)c2cc3ccccc3n2CC(=O)N(CC(=O)NCCc2ccc(O)cc2)CC(=O)NCc2cc(F)cc(C(F)(F)F)c2)cc2ccccc21)NCCc1ccc(O)cc1` is 4.84; for `COC(=O)c1cc2c3c(ccc2[nH]1)N(C(=O)c1nc2ccc(NC(=O)c4cc(NC(=O)OC(C)(C)C)cs4)cc2o1)CC3` it is 4.34; for `O=C(NCc1ccccc1)[C@H]1CN(C(=O)c2ccc(-c3ccc(C(=O)N4C[C@@H](C(=O)NCc5ccccc5)[C@H](C(=O)NC5C[C@H]5c5ccccc5)C4)cc3)cc2)C[C@@H]1C(=O)NC1C[C@@H]1c1ccccc1` (stereo not given in full) it is 4.04.
